B1: 1831_15: mouse anti-human TMPRSS2 monoclonal antibody, IgG2b κ; VH SEQ ID NO: 98, VL SEQ ID NO: 99 (antibody, V domains shown)
VH: QVQLQQPGAELVKPGASVKLSCKASGYSFTTYWMHWVRQRPGQGLEWIGIIHPNSGTTNYNEKFKSKASLTVDKSSSTAYMQLSSLTSEDSAVYYCARLLWDYFDYWGQGTTLTVSS
VL: DIVMSQSPSSLAVSAGEKVTMSCKSSQSLLNSRTRKNFLAWYQQKPGQSPKLLIYWASTRESGVPDRFTGSGSGTDFTLTISSVQAEDLAVYYCKQSYNLYTFGGGTKLEIK
modifications: mouse IgG2b kappa constant regions; 1831_15 VH; 1831_15 VL
B2: 2020_12: mouse anti-human TMPRSS2 monoclonal antibody, IgG2c κ; VH SEQ ID NO: 25, VL SEQ ID NO: 26 (antibody, V domains shown)
VH: QVQLQQPGAELAKPGASVKLSCKASGYTFTSYWMHWVKQRPGQGLEWIGLIPPNSGSSNYNEKFKSKATLTVDKSSRTAYMQLSSLTSEDSAVYYCARWDYGSSYGYFDVWGTGTTVTVSS
VL: DIVLTQSPASLAVSLGQRATISCRASESVSTSGYSYMHWYQQKPGQPPKLLIYLASNLESGVPVRFSGSGSGTDFTLNIHPVEEEDAATYYCQHSRELPPTFGAGTKLELK
modifications: mouse IgG2c kappa constant regions; 2020_12 VH; 2020_12 VL
B3: 1864_10: mouse anti-human TMPRSS2 monoclonal antibody, IgG2b κ; VH SEQ ID NO: 17, VL SEQ ID NO: 18 (antibody, V domains shown)
VH: QVQLQQSGPALVKPGASLKISCEASGYTFTYYSINWVKQRPGQGLEWIGWIFPGSGSTYYNEKFKGKATLTIDKSSSTAYMLLSSLTSEDSAVYFCARSDYGSAYGYFDVWGTGTTVTVSS
VL: DIVLTQSPASLAVSLGQRATISCRASKSVSTSGYSYMHWYQQKPGQPPKLLIYLASNLESGVPARFSGSGSGTDFTLNIHPVEEEDAATYYCQHSRDLPLTFGAGTKLELK
modifications: mouse IgG2b kappa constant regions; 1864_10 VH; 1864_10 VL

The chains behind the UniProt entries cited, without tags or fusion partners.
UniProt O15393, whole entry K300E/W306R: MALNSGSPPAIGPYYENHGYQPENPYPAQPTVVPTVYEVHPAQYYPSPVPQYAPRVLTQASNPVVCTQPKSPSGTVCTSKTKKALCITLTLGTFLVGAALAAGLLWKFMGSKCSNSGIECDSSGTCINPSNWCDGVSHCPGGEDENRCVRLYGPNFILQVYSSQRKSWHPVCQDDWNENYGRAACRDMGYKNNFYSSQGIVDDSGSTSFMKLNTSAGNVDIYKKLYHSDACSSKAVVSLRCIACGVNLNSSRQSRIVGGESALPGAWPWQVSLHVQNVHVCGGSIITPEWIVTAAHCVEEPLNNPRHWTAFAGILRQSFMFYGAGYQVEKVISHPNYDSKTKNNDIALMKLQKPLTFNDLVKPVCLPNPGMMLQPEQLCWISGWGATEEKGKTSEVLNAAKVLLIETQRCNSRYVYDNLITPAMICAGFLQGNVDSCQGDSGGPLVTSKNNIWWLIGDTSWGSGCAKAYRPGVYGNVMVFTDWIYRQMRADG
UniProt O15393, whole entry W306A: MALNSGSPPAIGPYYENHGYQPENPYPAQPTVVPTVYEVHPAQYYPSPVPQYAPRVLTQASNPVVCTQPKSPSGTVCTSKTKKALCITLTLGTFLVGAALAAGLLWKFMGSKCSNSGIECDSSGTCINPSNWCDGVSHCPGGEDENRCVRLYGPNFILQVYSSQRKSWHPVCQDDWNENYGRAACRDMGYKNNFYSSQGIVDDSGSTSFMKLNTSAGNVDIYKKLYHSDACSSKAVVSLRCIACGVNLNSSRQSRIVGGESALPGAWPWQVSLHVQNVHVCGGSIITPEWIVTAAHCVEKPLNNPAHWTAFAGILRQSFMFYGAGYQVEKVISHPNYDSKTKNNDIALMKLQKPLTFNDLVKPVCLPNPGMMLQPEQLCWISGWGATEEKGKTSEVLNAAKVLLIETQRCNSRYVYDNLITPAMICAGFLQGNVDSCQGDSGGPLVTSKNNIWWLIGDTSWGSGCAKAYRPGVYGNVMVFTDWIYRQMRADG
UniProt O15393, whole entry R316S/F319L: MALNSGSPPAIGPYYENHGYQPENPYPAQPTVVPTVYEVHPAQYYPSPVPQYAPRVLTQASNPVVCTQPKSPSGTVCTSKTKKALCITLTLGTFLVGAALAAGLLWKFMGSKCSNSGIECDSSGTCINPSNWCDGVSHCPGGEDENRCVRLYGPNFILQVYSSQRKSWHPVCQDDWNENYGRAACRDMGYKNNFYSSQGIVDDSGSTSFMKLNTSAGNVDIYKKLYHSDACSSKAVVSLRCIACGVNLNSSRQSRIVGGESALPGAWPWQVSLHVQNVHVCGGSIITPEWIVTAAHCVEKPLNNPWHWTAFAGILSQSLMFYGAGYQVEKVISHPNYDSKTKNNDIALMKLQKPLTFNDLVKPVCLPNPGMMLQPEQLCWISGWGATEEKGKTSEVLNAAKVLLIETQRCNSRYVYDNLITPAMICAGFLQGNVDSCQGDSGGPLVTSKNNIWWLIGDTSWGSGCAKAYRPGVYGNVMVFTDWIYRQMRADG

Experiments:
Experiment in all cases: Flow cytometry binding to TMPRSS2 variants in COS7 cells
[1] = molecular target: TMPRSS2 chimera (human/292 to 309 cat) (Homo sapiens, UniProt O15393, K300E/W306R); conditions: FIG. 7A
[2] = molecular target: W306A variant of human TMPRSS2 (Homo sapiens, UniProt O15393, W306A); conditions: FIG. 7C
[3] = molecular target: TMPRSS2 chimera (human/316 to 321 hamster) (Homo sapiens, UniProt O15393, F319L/R316S); conditions: FIG. 7D

Molecule | binding properties to TMPRSS2 chimera (human/292 to 309 cat) [1] | binding properties to W306A variant of human TMPRSS2 [2] | binding properties to TMPRSS2 chimera (human/316 to 321 hamster) [3]
B1 | lost binding properties | lost binding properties | 
B2 |  |  | lost binding properties
B3 |  |  | lost binding properties

Reference: US20250277059A1, “ANTIBODY USED TO TREAT CORONAVIRUS INFECTION” (priority 2022, published 2025)
